Laboratory results: PubChem BioAssay AID504761 (Drosophila RNAi Screening Center, 2011)
Aim: 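Genome-wide fly cell screen for genes dengue virus requires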 (primary screen). Cell system: D.Mel-2 cells from Drosophila. Reagents: long dsRNA against Drosophila genes. Challenge: infection with dengue virus type 2; dose and infection time not stated. Measurement: 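Cells stained for dengue envelope protein and imaged; percent of infected cells per well on duplicate plates, ranked by infection, with stained nuclei counted for cell number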. Scale: infection score: higher = more virus-infected cells; cell count: higher = more cells in the well. Active means: 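Very low infection ranking in both replicate wells (chance probability at most 0.065), then a retest showing infection dropped 1.5-fold or more at p below 0.05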. Meaning of the calls: active = confirmed: knock-down lowers infection; inactive = not picked or not confirmed.
The deposit covers about 22,000 reagents; below is a random part of those that have a named target and a result. In the full data, 116 (0.52%) are marked active. 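Calls depend on retest data that are not deposited; infection was ranked per plate without normalising between plates; the unit of the infection score is not given.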 Raw values are not corrected between plates. Further read-outs or replicates are left out here. Not given: the amount of reagent, the time to read-out.

Hel89B [DRSC16700]
- infection score, replicate 1: 2.38
- cell count, replicate 1: 6899
- activity call: inactive

Hel89B [DRSC21575]
- infection score, replicate 1: 0.51
- cell count, replicate 1: 6117
- activity call: inactive

egr [DRSC06233]
- infection score, replicate 1: 6.8
- cell count, replicate 1: 6541
- activity call: inactive

RpS8 [DRSC16318]
- infection score, replicate 1: 2.63
- cell count, replicate 1: 1219
- activity call: inactive

CG3558 [DRSC00615]
- infection score, replicate 1: 3.63
- cell count, replicate 1: 6312
- activity call: inactive

CG3558 [DRSC29745]
- infection score, replicate 1: 1.67
- cell count, replicate 1: 6400
- activity call: inactive

mRpL47 [DRSC16827]
- infection score, replicate 1: 2.89
- cell count, replicate 1: 5735
- activity call: inactive

alpha-Catr [DRSC04669]
- infection score, replicate 1: 1.98
- cell count, replicate 1: 1214
- activity call: inactive

alpha-Catr [DRSC28046]
- infection score, replicate 1: 12.1
- cell count, replicate 1: 6118
- activity call: inactive

CG14710 [DRSC14933]
- infection score, replicate 1: 11.7
- cell count, replicate 1: 5326
- activity call: inactive

hoe2 [DRSC00459]
- infection score, replicate 1: 8.56
- cell count, replicate 1: 958
- activity call: inactive

Cals [DRSC17196]
- infection score, replicate 1: 9.18
- cell count, replicate 1: 6342
- activity call: inactive

Cals [DRSC21661]
- infection score, replicate 1: 2.64
- cell count, replicate 1: 6181
- activity call: inactive

CG31815 [DRSC01548]
- infection score, replicate 1: 3.3
- cell count, replicate 1: 5459
- activity call: inactive

CG31815 [DRSC29263]
- infection score, replicate 1: 12.4
- cell count, replicate 1: 4558
- activity call: inactive

Xpd [DRSC04666]
- infection score, replicate 1: 3.11
- cell count, replicate 1: 6549
- activity call: inactive

Xpd [DRSC27757]
- infection score, replicate 1: 19.3
- cell count, replicate 1: 6128
- activity call: inactive

CG4709 [DRSC02772]
- infection score, replicate 1: 11
- cell count, replicate 1: 6599
- activity call: inactive

CG5645 [DRSC10532]
- infection score, replicate 1: 5.8
- cell count, replicate 1: 5944
- activity call: inactive

Dsk [DRSC12347]
- infection score, replicate 1: 2.69
- cell count, replicate 1: 6531
- activity call: inactive

Cep135 [DRSC09345]
- infection score, replicate 1: 0.69
- cell count, replicate 1: 5920
- activity call: inactive

Cep135 [DRSC10244]
- infection score, replicate 1: 3.93
- cell count, replicate 1: 6161
- activity call: inactive

Quoted from above for reference:
CG4709 [DRSC02772]
- infection score, replicate 1: 11
- cell count, replicate 1: 6599
- activity call: inactive

CG5645 [DRSC10532]
- infection score, replicate 1: 5.8
- cell count, replicate 1: 5944
- activity call: inactive

Dsk [DRSC12347]
- infection score, replicate 1: 2.69
- cell count, replicate 1: 6531
- activity call: inactive

Cep135 [DRSC09345]
- infection score, replicate 1: 0.69
- cell count, replicate 1: 5920
- activity call: inactive
